Compound potency records, mixed from different reports. Data source: NIAID ChemDB in PubChem.

Shared fields: growth or infection tests; organism: Human herpesvirus 6; method: cytopathic effect; read-out: EC50

Lines come from different laboratories, so protocols vary. Blank or dashed fields: not listed here. ECn: concentration that inhibits the pathogen or its effect by n%.

compound,strain,cells,result
Nc1ncc2c(ncn2COC(CO)CO)n1,GS (TYPE 6),,0.005 µg/mL
O=C(NCc1ccc(Cl)cc1)c1c[nH]c2ccc(C#CCO)cc2c1=O,1 isolates,,>100 µM
Nc1nc2c(ncn2C[C@]2(CO)C[C@H]2CO)c(=O)[nH]1,GS (subtype 6A),HSB-2,2.64 µg/mL
Cn1cc(C(=O)NCc2ccc(Cl)cc2)c(=O)c2cc(CN3CCOCC3)ccc21,,HSB-2,>100 µM
Cc1c(S(=O)(=O)c2ccc(Cl)cc2)c(NC(=O)C(F)(F)F)n(Cc2ccc(Cl)cc2)c1C,GS (TYPE 6A),HSB-2,5 µg/mL
Nc1nc2c(ncn2C[C@]2(CO)C[C@H]2CO)c(=O)[nH]1,TYPE 6B,MOLT-3,3.4 µg/mL
Nc1nc2c(ncn2[C@@H]2C[C@H](CO)[C@H]2CO)c(=O)[nH]1,Z-29 (subtype 6B),MOLT-3,2.36 µg/mL
N#CC1C(c2ccc(Cl)cc2)Nc2c(ccn2Cc2ccccc2)S1(=O)=O,GS (TYPE 6A),HSB-2,>20 µg/mL
NC1=NC2C(C=CN2CC(CO)CCO)C(=O)N1,,Human T-lymphoblasts,≥50 µM
N#CC1C(c2ccccc2)Nc2ccccc2S1(=O)=O,GS (TYPE 6A),HSB-2,>20 µg/mL
Nc1nc2c(ncn2COC(CO)CO)c(=O)[nH]1,GS (subtype 6A),HSB-2,10 µg/mL
Nc1nc2c(ncn2[C@H]2C=C[C@@H](CO)CC2)c(=O)[nH]1,,Human T-lymphoblasts,3.9 µM
Nc1nc2c(ncn2CCC(CO)CO)c(=O)[nH]1,Z-29 (subtype 6B),MOLT-3,>100 µg/mL
Nc1nc2c(ncn2[C@@H]2C=C[C@H](CO)CC2)c(=O)[nH]1,,Human T-lymphoblasts,3.9 µM

2 of the rows above, restated:

compound,strain,cells,result
Nc1nc2c(ncn2CCC(CO)CO)c(=O)[nH]1,Z-29 (subtype 6B),MOLT-3,>100 µg/mL
NC1=NC2C(C=CN2CC(CO)CCO)C(=O)N1,,Human T-lymphoblasts,≥50 µM